From patent publication US7968297B2, “Method for identification, isolation and production of antigens to a specific pathogen” (Intercell AG, priority 2001, dated 2011)

System: antibodies in human serum
Test: Bacterial surface display library screening by MACS with biotinylated human serum
Assay type: binding
Details: for No. of selected clones per ORF and screen: C: Bacterial surface display: C; for No. of selected clones per ORF and screen: F: Bacterial surface display: F, LSA50/6 library in lamB with patient sera P1 (1105); for No. of selected clones per ORF and screen: B: Bacterial surface display: B; for No. of selected clones per ORF and screen: E: Bacterial surface display: E, LSA50/6 library in lamB with IC sera 2 (454)
[1] = LSE70 library in lamB with patient sera 1 (551)
[2] = ORFs selected by bacterial surface display (screens A, B, C; some also D)
[3] = identified by bacterial surface display
[4] = LSE70 library in lamB with patient sera 2 (1420)
[5] = LSA50/6 library in lamB with patient sera 1 (484)
[6] = LSA250/1 library in fhuA with IC sera 1 (571)

Molecule	Location of identified Immunogenic region [2]	No. of selected clones per ORF and screen: F	Location of identified Immunogenic region [3]	further results
CRF0192 (protein) LYHQMVLQFLLNLVQIRYHHPSSFQRKLYQVLQITVLSHHVQVRKFLFLQYLPHVQDHLTLLHQLLFHLVL	aa 15-34	–	–	No. of selected clones per ORF and screen: C [1]: C: 4
CRF1247 (protein) YIKPLCLPIFLPSSVIISPGCAGKYCDKNVLKFFSPIKQMPVESFFLAVTSPCSSAIRRTSLFSMSPIGNITFESCC	–	F: 6	aa 36-46	–
CRF2155 (protein) ILSAALSTPALLNNTSILPNCSFMSDTKSTTCCSLALSTLYAFALSPLLLILSTVSDTASAMSTANTYAPY	–	F: 9	aa 54-66	–
CRF2341 (protein) DVLKLSSIKLYVFIIHFLTYFLNLRMRRFLTFLMLAFFFIFQMLNKIKARSPFSQCFHHIIPIRTDLLIYILQ	–	F: 8	aa 46-55	–
CRF2729 (protein) GMKMISISDEINCLICCNCVGLCSFISSAKYIFWISISSNTVAKTSIKRGKFLVTARSIRR	–	F: 3	aa 40-56	–
ORF0979 (protein, listed as Staphylococcus epidermidis) MMIIVMLILSYLIGAFPSGLIIGKLFFKKDIRQYGSGNTGATNSFRVLGRPAGFIVTFLDIFKGFITVFFPLWFPVHADGVISTFFTNGLIVGLFAILGHVYPIYLKFNGGKAVATSAGVVLGVNPILLLILAIIFFSVLKIFKYVSLSSIIAAISCVIGSIIIHDYILLAVSGIVSIILIIRHKSNIVRIFKGEEPKIKWM	aa 12-51	–	–	No. of selected clones per ORF and screen: A (Bacterial surface display: A, LSE150 library in fhuA with patient sera 2 (957)): A: 9,; No. of selected clones per ORF and screen: B [4]: B: 18
CRF0497 (protein) LLHHLVLLHLSQLILAQLPYQELTLVRKMDSHVLGLYPLIVYVQFQMFPYHRYQNQSIHRFDLQYFH	–	5	aa 18-34	No. of selected clones per ORF and screen: B [5]: 13
ORF2931 (protein, listed as Staphylococcus aureus) MKLKSLAVLSMSAVVLTACGNDTPKDETKSTESNTNQDTNTTKDVIALKDVKTSPEDAVKKAEETYKGQKLKGISFENSNGEWAYKVTQQKSGEESEVLVADKNKKVINKKTEKEDTMNENDNFKYSDAIDYKKAIKEGQKEFDGDIKEWSLEKDDGKLVYNIDLKKGNKKQEVTVDAKNGKVLKSEQDH	–	–	aa 22-37	No. of selected clones per ORF and screen: E: E: 6
CRF2349 (protein) SIIVNTVSKCIKVRLVGISIATTFLNVACGFSKIRRANFSIACADVRSETPIAKTSLDKTSSSPPSILNGQSRSNQIGIFASLNLG	–	4	aa 46-67	No. of selected clones per ORF and screen: B [5]: 10
CRF1256 (protein) RFASSSYSNNGQSVTHKKFNFVSSIKPNSLANLTRNAPKLCATTFGLSATNITKSPASAPVNVSNVSTFSVSKKRPIGPVKPSSTTLTHANPLAP	–	–	aa 54-67	No. of selected clones per ORF and screen: G (Bacterial surface display: G, LSA50/6 library in lamb with IC sera 1 (471)): G: 5
CRF1763 (protein) FEATKVPHNGSTLINNALNFNEALICLSLKVNIALIIPKIATIRGIVMLGYCGICKKAPRPAITPHTNAIYRNCFKSFTPKLLLHYYT	–	–	aa 1-22	No. of selected clones per ORF and screen: C [6]: C: 3
CRF2305 (protein) LLTFIAVKPTMTNKIIANTFKITKIFSIRAASDIPRDSNNAVNKITIAAIISIKPPFVPNGFDNAAGNSMPIGFTSPRKFAENPDATKATAIKYSANRAQPATHPKNSPNNTLTQE	–	–	aa 80-116	No. of selected clones per ORF and screen: C [6]: C: 5
ORF0355 (protein, listed as Staphylococcus epidermidis) MSKHSATLVIMFLITLLPIFQYQASAHATLEKSTPQQQGVIKDKPEAIKLEFNEPVNTKYSSVTLFDDKGKKIKDLKPITTGWSQTVVFSSEQIVNGTNTIEWHTVSADGHEVGDTFEFSVGKVRLKM	aa 63-86	–	–	No. of selected clones per ORF and screen: C [1]: C: 5
CRF0622 (protein) SRTLRALLLILQTGMMCGLLWSSSEIIIKFFSPLFVNPYTSSYFATSLINSLILISSNSDINSSVILTISTMFPSSPLFTLTKTLSPGSKISSISYVTKRSISALMILS	aa 75-99	–	–	No. of selected clones per ORF and screen: C [1]: C: 4
ORF0442 (protein, listed as Staphylococcus epidermidis) MKKIKTISTLVAGLGIAFLGHTTHADAAENNNQQQSTYNYSTTEVSFSNSGNLYTSGQCTWYVYDKTGGKIGSTWGNANSWATAAQAAGFTVNNTPEEGAIMQSSEGAFGHVAFVESVNNDGSITVSEMNYDGGPFAISTRTISASEASSYNYIHLN	aa 60-102	–	–	No. of selected clones per ORF and screen: C [1]: C: 38
ORF2958 (protein, listed as Staphylococcus aureus) MKMKNIAKISLLLGILATGVNTTTEKPVHAEKKPIVISENSKKLKAYYNQPSIEYKNVTGYISFIQPSIKFMNIIDGNSVNNIALIGKDKQHYHTGVHRNLNIFYVNEDKRFEGAKYSIGGITSANDKAVDLIAEARVIKEDHTGEYDYDFFPFKIDKEAMSLKEIDFKLRKYLIDNYGLYGEMSTGKITVKKKYYGKYTFELDKKLQEDRMSDVINVTDIDRIEIKVIKA	–	F: 1	aa 154-168	–
CRF2180 (protein) PGAIVSGPYSVNSLIGSFVISSFGSPLLIITPVNGFFSVGVVIVFSPFCPSLVTFSVPGAKSGLNLRSFLNGISSTFFSNSVIVFGASGVKVNSEPFKSVLIQPFAFIP	–	–	aa 86-99	No. of selected clones per ORF and screen: E: E: 13
CRF0275 (protein) RILWSSLCVIHKMAIPLSASLNIISSIFFLLCVSKALVASSNNKTSGSYMSCLAMVIRCCSPPDMCSI	aa 35-68	–	–	No. of selected clones per ORF and screen: B [4]: B: 5
